Reference: paper PMC12406258, “Uncovering the Unusual Inhibition Mechanism of a Trypanosome Alternative Oxidase Inhibitor Displaying Broad-Spectrum Activity against African Animal Trypanosomes” (Journal of Medicinal Chemistry, 2025)
Structures were worked out from names or drawings and are uncertain.

Protein sequences, listed by entry. Tags and fused reporters are not part of them. Lines headed by an entry give the natural chain unless they say otherwise; changes in a name come on top. Residues count along the entry.
UniProt Q26710, 26-329 limits assumed, stated change not applied: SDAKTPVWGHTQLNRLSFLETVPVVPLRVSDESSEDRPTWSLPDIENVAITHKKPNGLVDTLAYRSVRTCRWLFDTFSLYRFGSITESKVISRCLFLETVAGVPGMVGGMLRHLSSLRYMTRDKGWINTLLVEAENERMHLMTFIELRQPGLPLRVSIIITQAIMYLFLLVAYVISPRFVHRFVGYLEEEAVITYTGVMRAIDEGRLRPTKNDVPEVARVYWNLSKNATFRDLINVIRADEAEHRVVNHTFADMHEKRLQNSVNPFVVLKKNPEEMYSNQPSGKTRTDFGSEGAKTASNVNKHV

Target: recombinant TAO (ΔMTS rTAO) (Trypanosoma brucei brucei, UniProt Q26710)
Experiment: Inhibition of ubiquinol oxidase activity of purified recombinant TAO
Type: biochemical, T. brucei

Compound: Cc1ccc(C(=O)CCCCCCCCCCCCCCC[P+](c2ccccc2)(c2ccccc2)c2ccccc2)c(O)c1
- Inhibition of TAO at the highest concentration tested (5 μM): did not inhibit
- IC50 (read-out: rTAO IC50 (supplementary csv, compounds 2, 3, 5, 7, 11), IC50 (µM)): > 5 µM
